Measured values from several laboratories, pooled; numbers as filed in NIAID ChemDB.

Common to all: tests in culture; agent: Mycobacterium tuberculosis

A number after MIC or MFC names an inhibition level or a share of isolates. Two numbers with a dash give a range or band. Percent inhibition refers to the dose given; in toxicity tests it is the harm to the cells. ECn is the concentration giving n% inhibition of infection, replication or growth. Lines come from different laboratories, so protocols vary. MIC bound comes from a single tested concentration. Blank or dashed fields: not listed here.

SMILES,strain,changes,cell line,read by,measure,tested at,value
CCCCN1CCC2(CC1)N=c1c(c3c4c5c(C)c(O)c3c(O)c1=NC(=O)/C(C)=C\C=C\[C@H](C)[C@H](O)[C@@H](C)[C@@H](O)[C@@H](C)[C@H](OC(C)=O)[C@H](C)[C@@H](OC)/C=C/O[C@@](C)(O5)C4=O)N2,H37Rv,,,,MIC,,0.0012 µg/mL
CCCCCC/C=C/CCc1ccc(O)cc1,H37Rv,,,MTT,MIC,,128 µM
Cc1c([N+](=O)[O-])cc(C(=O)NCc2ccccc2)cc1[N+](=O)[O-],H37Rv (ATCC 27294),,,broth dilution / turbidity / visual reading,MIC,,6.35 µM
CC(C)[C@H]1CC[C@@H]2[C@]1(C)CC(=O)[C@@]1(C)CC[C@@](C)(O)[C@@H]3C[C@@]231,CIBIN 99,,,resazurin,MIC,,25 µg/mL
COC1/C=C\C=C(/C)C(=O)Nc2cc3nc4ccc(Br)cc4oc-3c(c2=O)CC(C)CC(OC)C(O)C(C)/C=C(\C)C1OC(N)=O,KM-R,,,,MIC,,12.5 µg/mL
CCC1CCC2CN(/N=C/c3c4c(O)c5c(O)c(C)c6c(c5c3O)C(=O)[C@@](C)(O/C=C/[C@H](OC)[C@@H](C)[C@@H](OC(C)=O)[C@H](C)[C@H](O)[C@H](C)[C@@H](O)[C@@H](C)/C=C/C=C(/C)C(=O)N4)O6)CCN2C1,Rifampicin-resistant,,,,MIC,,>3 µg/mL
O=C(Nc1ccc(F)cc1)c1cc([N+](=O)[O-])cc([N+](=O)[O-])c1,H37Rv (ATCC 27294),,,broth dilution / turbidity / visual reading,MIC,,1.63 µM
Cc1ccc(S(=O)(=O)N/N=C(\CC(=O)c2c(C)n([O-])c3ccccc3[n+]2=O)C(=O)Nc2ccccc2C)cc1,H37Rv,,,BACTEC,inhibition,12.5 µg/mL,14%
C=C1C(=O)N[C@@H](CC(C)C)C(=O)N[C@H](CC(C)C)C(=O)N[C@H](C(=O)O)[C@H](C)C(=O)N[C@H](CCCN=C(N)N)C(=O)N[C@@H](/C=C/C(C)=C/[C@H](C)[C@H](Cc2ccccc2)OC)[C@@H](C)C(=O)N[C@@H](C(=O)O)CCC(=O)N1C,H37Rv,,,resazurin,MIC,,13.2 µM
C=C1C(=O)O[C@@H]2C[C@@]3(C)CCC=C(C)[C@@H]3C[C@H]12,H37Rv,,,,MIC,,128 µg/mL
Nc1cc(=O)c2n[nH]nc2[nH]1,H37Rv,,,BACTEC,MIC,,≥12.5 µg/mL
COc1cc(CC(C)C(C)Cc2ccc(O)c(OC)c2)ccc1O,H37Rv,,,MTT,MIC,,>128 µM
O=c1nc(Oc2ccc(Cl)cc2Cl)oc2cc(Cl)ccc12,H37Rv,,,,MIC bound,,>6.25 µg/mL
C[C@H]1NCc2cc(-c3ccc4c(=O)c(C(=O)O)cn(C5CC5)c4c3OC(F)F)ccc21,67 clinical isolates,,,,MIC50,,2 µg/mL
CC(C)(C)OC(=O)NC1(C(=O)O/N=C2\c3ccccc3-c3c2c(N2CCN(c4ccccn4)CC2)nc2ccc(Br)cc32)CCCC1,H37Rv,,,resazurin,MIC90,,>6.25 µg/mL
CC(C)N1C(NNC(=O)c2cnccn2)=NS(=O)(=O)c2ccccc21,Clinical isolates drug-resistant,,,,MIC,,>16 µg/mL
O=Nc1c2c(-n3ccnc3)[nH]c3ccc(Br)cc3c-2c2ccccc12,H37Rv,,,resazurin,MIC90,,<0.39 µg/mL
Cc1ccc(Nc2cc(=O)[nH]c(N)n2)cc1Cl,H37Rv,,,BACTEC,inhibition,12.5 µg/mL,61%
CC(=O)OC[C@@]12CC[C@]3(C(=O)O)[C@@H](C(C)C)CC[C@H]3[C@@H]1C1C=C(C)C(C2)OO1,CIBIN 99,,,resazurin,MIC,,50 µg/mL
CCCCCCCCCC(=O)O/N=C1\c2ccccc2-c2c1c(N1CCN(c3ccccn3)CC1)nc1ccc(Br)cc21,H37Rv,,,resazurin,MIC90,,>6.25 µg/mL
C=C1C(=O)O[C@@H]2C[C@@]3(C)CCC[C@H](C)[C@@]34O[C@H]4[C@H]12,H37Rv,,,,MIC,,8 µg/mL
NNC(=O)c1ccncc1,Clinical isolate 27,,,resazurin / absorbance,MIC,,0.03 µg/mL
COC(=O)[C@]12CC[C@@]3(COC(C)=O)CC4OOC(C=C4C)[C@H]3[C@@H]1CC[C@@H]2C(C)C,H37Rv,,,resazurin,MIC,,100 µg/mL
CCOc1ccc2c(c1)n([O-])c1cc(Br)ccc1[n+]2=O,RMP-R,,,,MIC,,1.6 µg/mL
CO[C@H]1/C=C/O[C@@]2(C)Oc3c(C)c(O)c4c(O)c(c5c(c4c3C2=O)NC2(CCN(C(C)C(C)C)CC2)N=5)=NC(=O)/C(C)=C\C=C\[C@H](C)[C@H](O)[C@@H](C)[C@@H](O)[C@@H](C)[C@H](OC(C)=O)[C@@H]1C,H37Rv,,,,MIC,,0.0025 µg/mL
CN[C@@H]1[C@H](O[C@H]2[C@H](O[C@H]3[C@H](O)[C@@H](O)[C@H](N=C(N)N)[C@@H](O)[C@@H]3N=C(N)N)O[C@@H](C)[C@]2(O)C=O)O[C@@H](CO)[C@H](O)[C@H]1O,ATCC 35820,,,broth dilution,MIC,,>200 µg/mL
C(CNCC1CCCC1)CNCC1CCCC1,H37Rv,,,,MIC,,8 µg/mL
Cc1ccc(-c2cc(=O)c3cc(C)c(C)c(C(=O)O)c3o2)cc1N,H37Rv,,,BACTEC,MIC bound,,>12.5 µg/mL
CCCCCCCCCCCCCCC(=O)OC1(C)c2ccccc2-c2c1c(-n1ccnc1)nc1ccc(Br)cc21,H37Rv,,,resazurin,MIC90,,>6.25 µg/mL
O=c1cc(-c2ccccc2)c2cc(Cl)ccc2o1,,Streptomycin-resistant,,resazurin,MIC90,,>100 µg/mL
CN[C@@H]1[C@H](O)[C@H](NC)[C@H]2O[C@@]3(O)[C@H](NC(=O)Cc4ccncc4)C[C@@H](C)C[C@H]3O[C@@H]2[C@H]1O,H37Rv,,,broth dilution,MIC,,100 µg/mL
C=C1C(=O)O[C@@H]2C[C@@]3(C)CCC[C@]4(CO4)[C@@H]3C[C@H]12,H37Rv,,,,MIC,,32 µg/mL
Cc1ccc(S(=O)(=O)Oc2ccc3oc4c(CO)ccc(NCCN(C)C)c4c(=O)c3c2)cc1,RMP-R,,,,MIC,,12.5 µg/mL
C/C=C/c1ccc2c(c1)[C@@H](C)[C@H](c1ccc(OC)cc1)O2,Clinical isolate 57,,,resazurin / absorbance,MIC,,7.8 µg/mL
O=C(O)c1ccncc1,CF74,,,resazurin,MIC,,>25 µg/mL
CC1(C)CC[C@]2(C(=O)O)CC[C@]3(C)C(CC[C@@H]4[C@@]5(C)C[C@H](O)CC(C)(C)[C@@H]5CC[C@]43C)[C@@H]2C1,MMDO clinical isolate,,,resazurin,MIC,,50 µg/mL
NNC(=O)c1ccccc1,Mtb 56,,,,MIC,,1 µg/mL
CN1C(NNC(=O)c2ccc(Cl)nc2)=NS(=O)(=O)c2ccccc21,Clinical isolates drug-resistant,,,,MIC,,>16 µg/mL
Cc1ccc(N2CC(=O)N3CCCN3C(=O)C2)cc1,H37Rv,,,BACTEC,inhibition,12.5 µg/mL,31%
CN1C(NNC(=O)c2cccnc2)=NS(=O)(=O)c2ccccc21,Clinical isolates drug-sensitive,,,,MIC,,>16 µg/mL
O=[N+]([O-])Cc1cnc2nncn2n1,H37Rv,,VERO,BACTEC,MIC,,12.5 µg/mL
N#Cc1nc2ccccc2nc1Cl,H37Rv,,,,inhibition,12.5 µg/mL,94%
C[C@]1(COc2ccc(N3CCC(Oc4ccc(OC(F)(F)F)cc4)CC3)cc2)Cn2cc([N+](=O)[O-])nc2O1,Kurono,,,,MIC,,0.012 µg/mL
CCCN1CCC2(CC1)N=c1c(c3c4c5c(C)c(O)c3c(O)c1=NC(=O)/C(C)=C\C=C\[C@H](C)[C@H](O)[C@@H](C)[C@@H](O)[C@@H](C)[C@H](OC(C)=O)[C@H](C)[C@@H](OC)/C=C/O[C@@](C)(O5)C4=O)N2,H37Rv,,,,MIC,,0.005 µg/mL
CC/C=N/Nc1ccc([N+](=O)[O-])cc1[N+](=O)[O-],H37Rv,,,BACTEC,MIC,,>12.5 µg/mL
O=C(NC1=NS(=O)(=O)c2ccccc2N1c1ccccc1)c1ccc(Cl)nc1,Clinical isolates drug-sensitive,,,,MIC,,>16 µg/mL
CC1=CCC2=C3CC[C@H](C(C)C)[C@@]3(C)CC(=O)[C@@]2(C)CC1,CIBIN 99,,,resazurin,MIC,,50 µg/mL
CCN1C(NNC(=O)c2cccnc2)=NS(=O)(=O)c2ccccc21,Clinical isolates drug-sensitive,,,,MIC,,>16 µg/mL
C=C1C(=O)O[C@@H]2C[C@@]3(C)C=CC(=O)C(=C)[C@@H]3C[C@H]12,H37Rv,,,,MIC,,16 µg/mL
O=S(=O)(O)CCN(CCO)CCO,H37Rv,,,BACTEC,MIC bound,,>12.5 µg/mL
C/C=C/c1ccc2oc(-c3ccc(O)c(OC)c3)c(C)c2c1,Clinical isolate 4851,,,resazurin / absorbance,MIC,,7.8 µg/mL
CC1CC[C@H]2[C@@H]3CC[C@H](C(C)C)[C@@]3(C(=O)O)CC[C@@]2(C)CC1,CIBIN 99,,,resazurin,MIC,,50 µg/mL
NC1[C@H]2CN(c3nc4c(cc3F)c(=O)c(C(=O)O)cn4-c3ccc(F)cc3F)C[C@@H]12,250 isolates,,,,Mean MIC,,30.7 µg/mL
N#Cc1nc2cc(C(F)(F)F)ccc2nc1N,H37Rv,,,,inhibition,12.5 µg/mL,68%
CC(C)=CCC(OC(=O)CC(C)C)C1=CC(=O)c2c(O)ccc(O)c2C1=O,H37Rv,,,,MIC,,>12.5 µg/mL
CN[C@@H]1[C@H](O)[C@H](NC)[C@H]2O[C@@]3(O)C(=O)C[C@@H](C)O[C@H]3O[C@@H]2[C@H]1O,H37Rv-HL-14,,,broth dilution,MIC,,>200 µg/mL
CO/N=C1\CN(c2nc3c(cc2F)c(=O)c(C(=O)O)cn3C2CC2)CC1CN,44 isolates (resistant),,,,MIC50,,8 µg/mL
OCC1CCCC1CNCCCCNCC1CCCC1CO,H37Rv,,,,MIC,,>64 µg/mL
COc1ccccc1C(=O)N/N=C/c1c(O)ccc2ccccc12,H37Rv,,,BACTEC,MIC bound,,>12.5 µg/mL
OO,H37Rv,,,colony count,EC50,,>500 µM
CCOc1ccc2nc(NC(=O)C(=O)C(C(=O)c3ccccc3F)C3OC(=O)c4ccccc43)sc2c1,H37Rv,,,resazurin,inhibition,6.25 µg/mL,19%
CN[C@@H]1[C@H](O)[C@H](NC)[C@H]2O[C@@]3(O)[C@H](NC(=O)c4ccc(F)cc4)C[C@@H](C)C[C@H]3O[C@@H]2[C@H]1O,H37Rv,,,broth dilution,MIC,,50 µg/mL
CS(=O)(=O)OCCCCCCCCCCCC1C=CCC1,H37Rv,,,BACTEC,inhibition,12.5 µg/mL,75%
CO[C@H]1/C=C/O[C@@]2(C)Oc3c(C)c(O)c4c(O)c(cc(O)c4c3C2=O)NC(=O)/C(C)=C\C=C\[C@H](C)[C@H](O)[C@@H](C)[C@@H](O)[C@@H](C)[C@H](OC(C)=O)[C@@H]1C,Aoyama B,,,,MIC,,12.5 µg/mL
O=C(N/N=C/c1ccco1)c1cccnc1,H37Rv,,,BACTEC,inhibition,12.5 µg/mL,3%
O=C(NNC1=NS(=O)(=O)c2ccccc2N1c1ccccc1)c1cnccn1,Clinical isolates drug-resistant,,,,MIC,,8–16 µg/mL
C/C(=N\NC(=O)c1ccccc1O)c1ccc(/C(C)=N/NC(=O)c2ccccc2O)c2nc3cc(C)c(C)cc3nc12,H37Rv,,,BACTEC,MIC bound,,>12.5 µg/mL
CN1C(NC(=O)c2ccc(Cl)nc2)=NS(=O)(=O)c2cc(Cl)ccc21,Clinical isolates drug-sensitive,,,,MIC,,>16 µg/mL
CNC1Cc2c[nH]c3cccc(c23)C12C=C(C)C(=O)O2,H37Rv,,,BACTEC,inhibition,12.8 µg/mL,0%
CO[C@H]1/C=C/O[C@@]2(C)Oc3c(C)c(O)c4c(O)c(c(N=CN5CCCCCC5)c(O)c4c3C2=O)NC(=O)/C(C)=C\C=C\[C@H](C)[C@H](O)[C@@H](C)[C@@H](O)[C@@H](C)[C@H](OC(C)=O)[C@@H]1C,H37Rv,,,,MIC,,0.0025 µg/mL
COC1=CC(=O)c2c(ccc3ncnc(N)c23)C1=O,H37Rv,,,BACTEC,MIC bound,,>12.5 µg/mL
CCCCCCCCCCCCCC(=O)OC1(C)c2ccccc2-c2c1c(-n1ccnc1)nc1ccc(Br)cc21,H37Rv,,,resazurin,MIC90,,>6.25 µg/mL

A second listing of 9 rows from above:

{"SMILES": "CNC1Cc2c[nH]c3cccc(c23)C12C=C(C)C(=O)O2", "strain": "H37Rv", "read by": "BACTEC", "measure": "inhibition", "tested at": "12.8 µg/mL", "value": "0%"}
{"SMILES": "CN1C(NNC(=O)c2cccnc2)=NS(=O)(=O)c2ccccc21", "strain": "Clinical isolates drug-sensitive", "measure": "MIC", "value": ">16 µg/mL"}
{"SMILES": "Cc1c([N+](=O)[O-])cc(C(=O)NCc2ccccc2)cc1[N+](=O)[O-]", "strain": "H37Rv (ATCC 27294)", "read by": "broth dilution / turbidity / visual reading", "measure": "MIC", "value": "6.35 µM"}
{"SMILES": "CCCCCCCCCCCCCC(=O)OC1(C)c2ccccc2-c2c1c(-n1ccnc1)nc1ccc(Br)cc21", "strain": "H37Rv", "read by": "resazurin", "measure": "MIC90", "value": ">6.25 µg/mL"}
{"SMILES": "COC(=O)[C@]12CC[C@@]3(COC(C)=O)CC4OOC(C=C4C)[C@H]3[C@@H]1CC[C@@H]2C(C)C", "strain": "H37Rv", "read by": "resazurin", "measure": "MIC", "value": "100 µg/mL"}
{"SMILES": "C=C1C(=O)O[C@@H]2C[C@@]3(C)C=CC(=O)C(=C)[C@@H]3C[C@H]12", "strain": "H37Rv", "measure": "MIC", "value": "16 µg/mL"}
{"SMILES": "CC1=CCC2=C3CC[C@H](C(C)C)[C@@]3(C)CC(=O)[C@@]2(C)CC1", "strain": "CIBIN 99", "read by": "resazurin", "measure": "MIC", "value": "50 µg/mL"}
{"SMILES": "O=[N+]([O-])Cc1cnc2nncn2n1", "strain": "H37Rv", "cell line": "VERO", "read by": "BACTEC", "measure": "MIC", "value": "12.5 µg/mL"}
{"SMILES": "CCOc1ccc2nc(NC(=O)C(=O)C(C(=O)c3ccccc3F)C3OC(=O)c4ccccc43)sc2c1", "strain": "H37Rv", "read by": "resazurin", "measure": "inhibition", "tested at": "6.25 µg/mL", "value": "19%"}